Test results reported in doi:10.1101/2024.06.06.597810 (2024).

T1: Biotin-labeled BtRf-BetaCoV stem helix peptide (BtRf-BetaCoV, biotin (position not given))
T1 chain: DSFKQELDKYFKNH

B1: S2P6 UCA VH Y32Q Fab (Fab, V domains shown)
VH: QVQLVQSGAEVKKPGASVKVSCKASGYTFTSQYMHWVRQAPGQGLEWMGIINPSGGSTSYAQKFQGRVTMTRDTSTSTVYMELSSLRSEDTAVYYCARGSPKGAFDYWGQGTLVTVSS
VL: not shown
B2: S2P6 UCA VH S56H Fab (Fab, V domains shown)
VH: B1 VH with Q32Y, S57H
VL: not shown
B3: S2P6 UCA VH M48I Fab (Fab, V domains shown)
VH: B1 VH with Q32Y, M48I
VL: not shown
B4: S2P6 UCA VH Y32Q/M48I double mutant Fab (Fab, V domains shown)
VH: B1 VH with M48I
VL: not shown

Biological target: T1, Biotin-labeled BtRf-BetaCoV stem helix …
In the case of B1, the Kd is reported as 2560 nM. B2 showed a Kd of 865 nM. With B3 the Kd was 938 nM. For B4, the Kd was 189 nM.

Where a chain is given by its changes, count along the chain named. In names and notes the source's numbering stands.
